Data as given in patent publication US20250026813A1, “Antibodies against sars-cov-2 and uses thereof” (published 2025).
Residue numbers refer to the chain shown, from its start.

B1: IMPI-055 (antibody, V domains shown)
VH: QVQLVQSGAEVKKPGASVKVSCKASGYTFTSYDINWVRQATGQGLEWMGWMNPNSGNTGYAQKFQGRVTMTRDTSINTAYMELSSLRSEDTAVYFCARGGRYCSDVTCYSGEPFDYWGQGTLVTVSS
VL: EIMLTQSPDFQSVTPKEKVTITCRASQSIGSSLHWYQQKPDQSPKLLIKFASQSISGVPSRFSGSGSGTDFTLTINSLEAEDAAAYYCHQSSSLPHTFGPGTKVEIK
B2: IMPI-055 (antibody, V domains shown)
VH: B1 VH
VL: B1 VL
B3: IMPI-029 (antibody, V domains shown)
VH: EVQLVESGGGLIQPGGSLRLSCAASGVTVSSNYMNWVRQAPGKGLEWVSVIYSGGSTYYADSVKGRFTISRDNSKNTLFLQMNSLRAEDSAVYYCARDLGPYGVDVWGQGTTVTVSS
VL: DIQLTQSPSFLSASVGDRVTITCWASQGISSYLAWYQQKPGKAPKLLIYAASTLQSGVPSRFSGSGSGTEFTLTISSLQPEDFATYYCQELNSYPLTFGQGTRLEIK
B4: IMPI-060 (antibody, V domains shown)
VH: B3 VH with N35S, Y58F, F79Y, S90T, G100S, P101Y, V104M
VL: B3 VL with R61K, E90Q, L96S, T97S, R103K
B5: IMPI-017 (antibody, V domains shown)
VH: B3 VH with S25A, V27L, A40V, F79Y, S90T, P101T, Y102L, V104M
VL: B3 VL with S31T, E90Q, P95L, L96P, R103K, L104V
B6: IMPI-002 (antibody, V domains shown)
VH: B3 VH with N35S, W47G, F79Y, S90T, L99T, G100V, P101V, V104M
VL: B3 VL with E90Q, Q100G, R103K, L104V
B7: IMPI-005 (antibody, V domains shown)
VH: B3 VH with V27F
VL: B3 VL
B8: IMPI-056 (antibody, V domains shown)
VH: B3 VH with V27L, G44K, Y58F, K64R
VL: B3 VL with E90Q
B9: IMPI-047 (antibody, V domains shown)
VH: B3 VH with V27F, F79Y, A87T, S90T, G100V, P101A, V104M
VL: B3 VL with L46V, E90L, Y94N, Q100G, R103K, L104V
B10: IMPI-060 (antibody, V domains shown)
VH: B3 VH with N35S, Y58F, F79Y, S90T, G100S, P101Y, V104M
VL: B3 VL with R61K, E90Q, L96S, T97S, R103K
B11: IMPI-037 (antibody, V domains shown)
VH: not shown
VL: B3 VL with S30N, A84T, E90Q, L91F, S93D, L96R, Q100P, R103K, L104V
B12: IMPI-052 (antibody, V domains shown)
VH: B3 VH with W47G, S56T, F79Y, S90T, L99T, G100V, P101V, V104M
VL: B3 VL with A50T, E90Q, Q100G, R103K, L104V
B13: IMPI-059 (antibody, V domains shown)
VH: EVQLVESGGGLIQPGGSLRLSCAASGFTVSSIYMSWVRQAPGKGLEWVSIIYSRGSTDYADSVKGRFTISRDISKNTLYLQMNSLRAEDTAVYYCARDGTMVRGVHAFDIWGQGTMVTVSS
VL: DIQMTQSPPSLSASIGDRVTITCQASQDISNYLNWYQQKPGKAPKLLIYDASNLETGVPSRFSGSGSGTDFTLTISNLQPEDIVTYYCQQYDNLPSSFGQGTKLEIK
B14: IMPI-006 (antibody, V domains shown)
VH: QLQLQESGPGLVKPSETLSLTCTVSGGSISNSNYYWGWIRQPPGKGLEWIGSIYYSGRTYYNPSLKSRVTISVDTSKNQFSLKLSSVTAADTAVYYCARMGLLWFGEFYGMDVWGQGTTVTVSS
VL: DIQMTQSPSSLSASVGDRVTITCRASQGISSWLAWYQQKPEKAPKSLIYDASSLQRGVPSRFSGSGSGTDFTLTISSLQPEDFASYYCQQYNSYPLTFGGGTRVEIK
B15: IMPI-028 (antibody, V domains shown)
VH: EVQLVESGGGLIQPGGSLRLSCAASGFTVSSNYMSWVRQAPGKGLEWVSVIYSGGSTYYADSVKGRFTISRDNSKNTLYLQMNSLRAEDTAVYYCARDYGDLYFDYWGQGTLVTVSS
VL: EIVLTQSPGTLSLSPGERATLSCRASQSISSYLAWYQQKPGQAPRLLIYGASSRATGIPDKFSGSGSGTDFTLTISRLEPEDFAVYYCQQYGSSPRTFGQGTKVEIK
B16: IMPI-054 (antibody, V domains shown)
VH: EVQLVESGGGLIQPGGSLRLSCAASGLTVSSNYMSWVRQAPGKGLEWVSIIYSGGSTYYADSVKGRFTISRDNSKNTLYLQMNSLRAEDTAVYYCARLGGYYYYGMDVWGQGTTVTVSS
VL: DIQMTQSPSSLSASVGERVTITCQASQDIRNYLNWYQKKPGKAPKLLIYDSSNLETGVPSRFSGSGSGTDFTFTISSLQPEDIATYYCQQYDNLPITFGQGTRLEIK
B17: IMPI-054 (antibody, V domains shown)
VH: B16 VH
VL: B16 VL
B18: IMPI-038 (antibody, V domains shown)
VH: QVQLVESGGGVVQPGRSLRLSCAASGFTFSSYGMHWVRQAPGKGLEWVAVISYDGSDKYYADSVKGRFTISRDNSKNTLYLQMNSLRAEDTAVYYCAKTVAGYYYYYYGMDVWGQGTTVTVSS
VL: DIQMTQSPSSVSASVGDRVTVTCRASQDISSWLAWFQQKPGKAPKFLIYDASNLENGVPSRFSGSGSGTDFTLTISSLQPEDFATYYCQQAKSFPWTFGQGTKVEIN
B19: IMPI-067 (antibody, V domains shown)
VH: B18 VH with R16T, S30N, Y32F, D57S, T99D, V100E, A101G, G102D, Y104D, Y105D
VL: EIVLTQSPGSLSLSPGERATLSCRASQSLSSRYLAWYHQKPGQAPRLLIYGASSRATGIPDRFSGSGSGTDFTLTISGLEPEDFAVYYCQQYGNSITFGGGTKVEIK
B20: IMPI-022 (antibody, V domains shown)
VH: EVQLVESGGGLVQPGRSLRLSCAASGFTFDDYAMHWVRQAPGKGLEWVSGITWNSGSIGYADSVKGRFTISRDNAKNSLYLHMNSLRVEDTALYYCAKDLQGDYYYYGVDVWGQGTTVTVSS
VL: AIQLTQSPSSLSASVGDRVTITCRASQGISSALAWYQQKPGKAPKLLLYDASSLVSGVPSRFSGSRSGTDFTLTISSLQPEDFATYYCQQFISYPLTFGGGTRVEIK
B21: IMPI-068 (antibody, V domains shown)
VH: QVQLVESGGDVVQPGRSLRLSCAASGFTFSRYGMHWVRQAPGKGLEWVAVISYDGSDKYYADSVKGRFTISRDNSKNTLYLQMNSLRAEDTAVYYCAKQLPLYYYYYGMDVWGQGTTVTVSS
VL: B20 VL with K45N, L48I, V55E, R66G, I92N, S93I, L96H, G100P, R103K, E105D
B22: IMPI-024 (antibody, V domains shown)
VH: EVQLVQSGAEVKKPGESLKISCKGSGYSFTSYWIGWVRQMPGKGLEWMGIIYPGDSDTRYSPSFQGQVTISADKSISTAYLQWSSLKASDTAMYYCVRSYNWNYFDYWGQGTLVTVSS
VL: B20 VL with A32G, P40A, L48I, A51V, V55E, R66G, I92L, L96W, G100Q, R103K
B23: IMPI-027 (antibody, V domains shown)
VH: QVQLQESGPGLVKPSQTLSLTCTVSGGSISSYGYYWNWIRQHPGKGLEWIGYIYYSGSTYYNPSLKSRVTISVDTSKNQLSLRLNSVSAADTAVYYCARDFGGNSNYFDYWGQGTLVTVSS
VL: B20 VL with A25T, L48I, V55E, R66G, I92N, R103K
B24: IMPI-033 (antibody, V domains shown)
VH: B23 VH with N37S, I71M
VL: B20 VL with K45N, L48I, V55E, R66G, I92N, Y94S, R103K

Columns and labels:
Test in all cases: cell-based or functional assay
[1] = molecular target: SARS-CoV-2 spike protein on live wild type virus SARS-CoV-2/England/IC19/2020 (SARS-CoV-2, UniProt P0DTC2 14-1273)
[2] = molecular target: SARS-CoV-2 spike protein on authentic virus carrying D614G (WA-1 strain) (SARS-CoV-2, UniProt P0DTC2 14-1273)
[3] = molecular target: SARS-CoV-2 spike protein on authentic virus of the B.1.351 (Beta) strain (SARS-CoV-2)
[4] = molecular target: SARS-CoV-2 spike protein of the B.1.351 (Beta) strain live virus (SARS-CoV-2)
[5] = molecular target: SARS-CoV-2 spike protein of the WA-1 strain live virus (carrying D614G) (SARS-CoV-2, UniProt P0DTC2 14-1273)

| Binder | SARS COV2 neutralisation (complete virus inhibition, pM) [1] [pM] | Live virus B.1.351 strain IC50 [4] [mg/L] | also measured |
| --- | --- | --- | --- |
| B1 | 391 | – | – |
| B2 | – | – | Live virus WA-1 strain IC50 [2]: 0.00032 mg/L; Live virus B.1.351 strain IC50 [3]: 25 mg/L |
| B3 | 781 | – | – |
| B4 | – | – | Live virus WA-1 strain IC50 [2]: 0.171 mg/L |
| B5 | 781 | – | – |
| B6 | – | 15.7 | – |
| B7 | 1560 | – | – |
| B8 | – | – | Live virus B.1.351 strain IC50 [3]: 25 mg/L |
| B9 | 781 | – | – |
| B10 | 12500 | – | – |
| B11 | – | 0.00038 | – |
| B12 | – | 3.7 | – |
| B13 | 1560 | – | – |
| B14 | 25000 | – | – |
| B15 | – | 7.44 | – |
| B16 | 391 | – | – |
| B17 | – | – | Live virus WA-1 strain IC50 [2]: 0.015 mg/L |
| B18 | – | 5.89 | – |
| B19 | – | – | Live virus B.1.351 strain IC50 [3]: 25 mg/L |
| B20 | – | 1.61 | Live virus WA-1 strain IC50 [5]: 0.018 mg/L |
| B21 | – | – | Live virus B.1.351 strain IC50 [3]: 4.51 mg/L |
| B22 | – | 1.24 | Live virus WA-1 strain IC50 [5]: 1 mg/L |
| B23 | – | 5.4 | Live virus WA-1 strain IC50 [5]: 1.82 mg/L |
| B24 | – | 8.9 | Live virus WA-1 strain IC50 [5]: 3.67 mg/L |
